Test results as given in patent EP1832653A1.

Target: monoclonal antibody M75 (MAb M75), secreted from the hybridoma VU-M75, ATCC HB 11128
Test: competition ELISA with M75 on immobilized GST-MN

Q: With “complete MN/CA IX+ protein purified from Vero cells infected with vaccinia virus containing the complete coding region of MN/CA IX (from UniProt Q16790 38-459) (enzyme)” as the substance, how does the fold more active than the smallest serologically active peptide (molar concentration) read?
A: 1.5e+08 x

Q: What about the fold more active than the smallest serologically active peptide (weight/volume concentration) of the same substance?
A: 100000 x
